Results as given in patent publication US11364214B2, “Compositions and methods for treating eczema” (Dermala Inc., priority 2016, dated 2022).

Test system: HaCaT human keratinocyte cell line stimulated with SpA
Assay: TNF-α release from HaCaT keratinocytes stimulated with Staphylococcal protein A (SpA), ELISA
Settings: SpA 10 μg/mL, compound 0-100 mM applied prior and/or post stimulation

glyceryl tripropionate-tripropionin
inflammatory responses (TNF-α release) after SpA stimulation: displaying both the anti-S. aureus and anti-inflammatory properties
